Results of unrelated studies side by side (data: NIAID ChemDB).

Common to all: whole-cell or culture tests; species: Candida albicans; read-out: MIC

Blank or dashed fields: not listed here. Neighbouring rows are from separate reports.

structure | strain or isolate | read by | result
CCCCN1/C(=C/C(=O)c2ccccc2)Sc2ccccc21 | ATCC 10231 | - | 50 µg/mL
CCCCCCCCCCCCCCCCCCC1=NCCCC1 | ATCC 90028 | - | 20 µg/mL
CCOc1ccccc1N1COc2c(ccc3ccccc23)C1 | MTCC 277 | - | 15 µg/mL
CSc1nc2ccccc2c(=O)n1/N=C1\C(=O)N(CN(C)C)c2ccc(Br)cc21 | - | - | 156 µg/mL
OCCn1sc2ccccc2c1=S | - | - | 5 µg/mL
Cc1c(O)cccc1C(=O)N[C@@H](CSc1ccccc1)[C@H](O)CN1C[C@H]2CCCC[C@H]2C[C@H]1C(=O)NC(C)(C)C | I156A | - | 64 µg/mL
Clc1ccc(CO/N=C2/c3ccccc3OCC2n2ccnc2)cc1 | - | - | 4 µg/mL
CCCCN1/C(=C2\CCN(Cc3ccccc3)CC2=O)Sc2ccccc21 | ATCC 10231 | - | 100 µg/mL
Clc1ccc(CO/N=C2/c3ccc(Cl)cc3OCC2n2ccnc2)cc1 | - | - | 4 µg/mL
CSc1nc2ccccc2c(=O)n1/N=C1\C(=O)N(CN(C)C)c2ccc(Cl)cc21 | - | - | 156 µg/mL
Clc1ccc(CO/N=C2\c3ccccc3OCC2n2ccnc2)cc1 | - | - | 8 µg/mL
CSc1nc2ccccc2c(=O)n1/N=C1\C(=O)N(CN2CCCCC2)c2ccc(Br)cc21 | - | - | 78.12 µg/mL
CCCCCCCCN[C@H]1C[C@H]2C(=O)NCCC[C@H](NC(=O)c3ccc(-c4ccc(-c5ccc(OCCCCC)cc5)cc4)cc3)C(=O)N[C@@H]([C@@H](C)O)C(=O)N3C[C@H](O)C[C@H]3C(=O)N[C@@H](CCc3ccc(O)cc3)C(=O)N[C@@H]([C@@H](C)O)C(=O)N2C1 | ATCC 38247 | - | 50 µg/mL
Oc1ccc(C(=S)N2C=NC(Cl)C2Cl)c(O)c1 | 10 isolates | - | 50 µg/mL
CN[C@H]1CCCNC(=O)[C@@H]2C[C@H](N)CN2C(=O)[C@H]([C@@H](C)O)NC(=O)[C@H](CCc2ccc(O)cc2)NC(=O)[C@@H]2C[C@@H](O)CN2C(=O)[C@H]([C@@H](C)O)NC1=O | ATCC 38247 | - | 3.12 µg/mL
CCCCCCCCCCCCC(OC)C(=O)O | ATCC 14053 | - | 110 µM
Clc1ccc(CO/N=C2\c3ccccc3OCC2n2ccnc2)c(Cl)c1 | - | - | 1 µg/mL
CSc1nc2ccccc2c(=O)n1/N=C1\C(=O)N(CN2CCOCC2)c2ccc(Br)cc21 | - | - | 78.12 µg/mL
c1ccc(CO/N=C2/c3ccccc3OCC2n2ccnc2)cc1 | - | - | 16 µg/mL
[2H]c1ccc(COC[C@@H]2NC(=O)[C@@H]3C[C@@H](O)CN3C(=O)[C@H]([C@@H](C)O)NC(=O)[C@@H](NC(=O)c3ccc(-c4ccc(-c5ccc(OCCCCC)cc5)cc4)cc3)CCCNC(=O)[C@@H]3C[C@H](N)CN3C(=O)[C@H]([C@@H](C)O)NC2=O)cc1 | ATCC 38247 | - | 25 µg/mL
CSc1nc2ccccc2c(=O)n1/N=C1\C(=O)Nc2ccc(Cl)cc21 | - | - | 156 µg/mL
CO[C@@H]1C[C@H](C[C@@H](C)[C@@H]2CC(=O)[C@H](C)/C=C(\C)[C@@H](O)[C@@H](OC)C(=O)[C@H](C)C[C@H](C)/C=C/C=C/C=C(\C)[C@@H](N(OC)C(=O)N(C)C)C[C@@H]3CC[C@@H](C)[C@@](O)(O3)C(=O)C(=O)N3CCCC[C@H]3C(=O)O2)CC[C@H]1C(=O)ON(C)O | 579A | - | 50 µg/mL
CSc1nc2ccccc2c(=O)n1/N=C1\C(=O)N(CN2CCCCC2)c2ccccc21 | - | - | 312.5 µg/mL
CCn1c2c(c3ccccc31)C(=O)c1ncc(C)cc1C2=O | - | - | >200 µg/mL
N#Cc1c(-c2cccc(Cl)c2)cc(-c2cc3cc(F)ccc3oc2=O)nc1NS(=O)(=O)c1ccccc1 | MTCC 227 | turbidity | 1000 µg/mL
CC(N1CCN(c2ccc(-n3cnnn3)cc2)C1=O)[C@](O)(Cn1cncn1)c1ccc(F)cc1F | Azole-susceptible | - | 0.008 µg/mL
CO[C@H]1C[C@@H]2CC[C@@H](C)[C@@](O)(O2)C(=O)C(=O)N2CCCC[C@H]2C(=O)O[C@H]([C@H](C)C[C@@H]2CC[C@@H](C(=O)ON3CCNCC3)[C@H](OC)C2)CC(=O)[C@H](C)/C=C(\C)[C@@H](O)[C@@H](OC)C(=O)[C@H](C)C[C@H](C)CCCC/C=C/1C | 38247 | - | >100 µg/mL
Cc1ccc(-c2cc(-c3cc4cc(F)ccc4oc3=O)nc(NS(=O)(=O)c3ccccc3)c2C#N)cc1 | MTCC 227 | turbidity | 1000 µg/mL
CCCCCCCCOc1ccc(N2CCN(c3ccc(C(=O)N[C@H]4CCCNC(=O)[C@@H]5C[C@H](N=C(N)N)CN5C(=O)[C@H](CCN)NC(=O)[C@H](CCc5ccc(O)cc5)NC(=O)[C@@H]5C[C@@H](O)CN5C(=O)[C@H]([C@@H](C)O)NC4=O)cc3)CC2)cc1 | ATCC 38247 | - | 0.78 µg/mL
C[C@H](N)C(=O)N[C@H](C(=O)O)n1cc(F)c(=O)[nH]c1=O | 3153A | - | 12.5 µg/mL
COC(=O)/C=C/c1ccc(OC)cc1 | ATCC 10231 | broth dilution / resazurin | 500 µg/mL
NCCCCC(N)C(=O)NCCCCC(N)C(=O)O | - | - | 54 µg/mL
OCCN=c1ssc2ccccc12 | - | - | 5 µg/mL
CO[C@@H]1C[C@H](C[C@@H](C)[C@@H]2CC(=O)[C@H](C)/C=C(\C)[C@@H](O)[C@@H](OC)C(=O)[C@H](C)C[C@H](C)/C=C/C=C/C=C(\C)[C@H](N(OC)C(=O)N(C)C)C[C@@H]3CC[C@@H](C)[C@@](O)(O3)C(=O)C(=O)N3CCCC[C@H]3C(=O)O2)CC[C@H]1C(=O)ON(C)O | 38247 | - | >100 µg/mL
CCCCCCC(=O)/C=C1\Sc2ccccc2N1C1=CCCCCC1 | ATCC 14053 | - | >100 µg/mL
CN1CCN(CP(CN2CCN(C)CC2)CN2CCN(C)CC2)CC1 | API 20 NE | - | 640 µg/mL
CC(C)(CO)n1sc2ccccc2c1=S | - | - | 20 µg/mL
Fc1ccc(N2COc3c(ccc4ccccc34)C2)cc1 | MTCC 277 | - | 15 µg/mL
Clc1ccc(CO/N=C2/c3ccccc3OCC2n2ccnc2)c(Cl)c1 | - | - | 32 µg/mL
CCCCCCCCCCCC1=NCCN1C(=S)c1ccc(O)cc1O | ATCC 10231 | - | 50 µg/mL
C[C@H]1N(C(=O)c2ccc(C(F)(F)F)cc2)C[C@@H](O)O[C@@]1(Cn1cncn1)c1ccc(F)cc1F | Isolate 5 | - | >64 µg/mL
CCCCCCCCOc1ccc(N2CCN(c3ccc(C(=O)N[C@H]4CCCNC(=O)[C@@H]5C[C@H](N=C(N)N)CN5C(=O)[C@H](CCN)NC(=O)[C@H](CCc5ccc(O)cc5)NC(=O)[C@@H]5CCCN5C(=O)[C@H]([C@@H](C)O)NC4=O)cc3)CC2)cc1 | ATCC 38247 | - | 0.2 µg/mL
CO[C@H]1C[C@@H]2CC[C@@H](C)[C@@](O)(O2)C(=O)C(=O)N2CCCC[C@H]2C(=O)O[C@H]([C@H](C)C[C@@H]2CC[C@@H](C(=O)ON3CCOCC3)[C@H](OC)C2)CC(=O)[C@H](C)/C=C(\C)[C@@H](O)[C@@H](OC)C(=O)[C@H](C)C[C@H](C)CCCC/C=C/1C | 579A | - | >100 µg/mL
Cc1ccc(N2COc3c(ccc4ccccc34)C2)cc1 | MTCC 277 | - | 20 µg/mL
O=C(c1ccccc1)c1ccc2c(c1)oc(=O)n2CC1=NCCS1 | - | - | 50 µg/mL
COCCNC(=O)[C@H]1[C@@H]2C[C@@H](O[C@@H]3O[C@H](C)[C@@H](O)[C@H](N)[C@@H]3O)/C=C/C=C/C=C/C=C/C=C/C=C/C=C/[C@H](C)[C@@H](O)[C@H](C)[C@H](C)OC(=O)C[C@H](O)C[C@H](O)[C@@H](O)CC[C@H](O)C[C@H](O)C[C@](O)(C[C@@H]1O)O2 | 3 strains | - | 1.6 µg/mL
CCC(C)CC(C)CCCCCCCCC(=O)N[C@H]1C[C@@H](O)[C@H](NCCN)NC(=O)[C@@H]2[C@@H](O)CCN2C(=O)[C@H]([C@H](O)CCN)NC(=O)[C@H]([C@H](O)[C@@H](O)c2ccc(O)cc2)NC(=O)[C@@H]2C[C@@H](O)CN2C(=O)[C@H]([C@@H](C)O)NC1=O | Clinical isolates | - | 0.029 µg/mL
N#Cc1c(-c2cccc([N+](=O)[O-])c2)cc(-c2cc3cc(F)ccc3oc2=O)nc1NS(=O)(=O)c1ccccc1 | MTCC 227 | turbidity | 1000 µg/mL
c1ccc(CO/N=C2\c3ccccc3OCC2n2ccnc2)cc1 | - | - | 32 µg/mL
CCCCCCCCCCCCCCC1=NCCCC1 | ATCC 90028 | - | 20 µg/mL
Clc1ccccc1C(c1ccccc1)(c1ccccc1)n1ccnc1 | - | - | 0.5 µM
Oc1ccc(C(=S)n2nnnc2-c2ccc(Cl)cc2)c(O)c1 | 10 isolates | - | 25 µg/mL
CCCCCOc1ccc(-c2ccc(-c3ccc(C(=O)N[C@H]4CCCNC(=O)[C@@H]5C[C@H](NC(=O)c6ccccc6)CN5C(=O)[C@H]([C@@H](C)O)NC(=O)[C@H](CCc5ccc(O)cc5)NC(=O)[C@@H]5C[C@@H](O)CN5C(=O)[C@H]([C@@H](C)O)NC4=O)cc3)cc2)cc1 | ATCC 62376 | - | 6.25 µg/mL
OCCCN=c1ssc2ccccc12 | - | - | 15 µg/mL
O=C(c1cccc(F)c1)c1ccc2c(c1)oc(=O)n2CC1=NCCS1 | - | - | 100 µg/mL
CC(C)(CO)N=c1ssc2ccccc12 | - | - | 20 µg/mL
COc1ccc(C(c2ccccc2)(c2ccccc2)n2ccnc2)cc1 | - | - | 1 µM
O=C(c1cccc(Cl)c1)c1ccc2c(c1)oc(=O)n2CC1=NCCS1 | - | - | 25 µg/mL
O=c1[nH]cc(F)c(=O)[nH]1 | 3153A | - | 1 µg/mL
Clc1ccc(OC(Cn2cc(C3CCCCC3)nn2)c2ccc(Cl)cc2Cl)cc1 | ATCC90027 | broth dilution | >256 µg/mL
Nc1[nH]c(=O)ncc1F | 2715 | - | 1 µg/mL
CCCC(=O)/C=C1\Sc2cc(F)ccc2N1C1=CCCCCC1 | ATCC 14053 | - | ≥100 µg/mL
OCCc1cn(CC(Oc2ccc(OC(F)(F)F)cc2)c2ccc(Cl)cc2Cl)nn1 | ATCC90027 | broth dilution | >64 µg/mL

For reference, 7 entries again:

structure	strain or isolate	read by	result
Clc1ccc(CO/N=C2/c3ccccc3OCC2n2ccnc2)c(Cl)c1	-	-	32 µg/mL
CCCCCCC(=O)/C=C1\Sc2ccccc2N1C1=CCCCCC1	ATCC 14053	-	>100 µg/mL
C[C@H]1N(C(=O)c2ccc(C(F)(F)F)cc2)C[C@@H](O)O[C@@]1(Cn1cncn1)c1ccc(F)cc1F	Isolate 5	-	>64 µg/mL
Clc1ccc(CO/N=C2/c3ccc(Cl)cc3OCC2n2ccnc2)cc1	-	-	4 µg/mL
CCC(C)CC(C)CCCCCCCCC(=O)N[C@H]1C[C@@H](O)[C@H](NCCN)NC(=O)[C@@H]2[C@@H](O)CCN2C(=O)[C@H]([C@H](O)CCN)NC(=O)[C@H]([C@H](O)[C@@H](O)c2ccc(O)cc2)NC(=O)[C@@H]2C[C@@H](O)CN2C(=O)[C@H]([C@@H](C)O)NC1=O	Clinical isolates	-	0.029 µg/mL
Fc1ccc(N2COc3c(ccc4ccccc34)C2)cc1	MTCC 277	-	15 µg/mL
CCCCCCCCCCCCCCC1=NCCCC1	ATCC 90028	-	20 µg/mL